ChEMBL document CHEMBL1800071, “Switching reversibility to irreversibility in glycogen synthase kinase 3 inhibitors: clues for specific design of new compounds” (J Med Chem, 2011)

Sequences of proteins named here, by UniProt entry; tags and fusion partners are left off.
UniProt P00520, whole entry, looked up: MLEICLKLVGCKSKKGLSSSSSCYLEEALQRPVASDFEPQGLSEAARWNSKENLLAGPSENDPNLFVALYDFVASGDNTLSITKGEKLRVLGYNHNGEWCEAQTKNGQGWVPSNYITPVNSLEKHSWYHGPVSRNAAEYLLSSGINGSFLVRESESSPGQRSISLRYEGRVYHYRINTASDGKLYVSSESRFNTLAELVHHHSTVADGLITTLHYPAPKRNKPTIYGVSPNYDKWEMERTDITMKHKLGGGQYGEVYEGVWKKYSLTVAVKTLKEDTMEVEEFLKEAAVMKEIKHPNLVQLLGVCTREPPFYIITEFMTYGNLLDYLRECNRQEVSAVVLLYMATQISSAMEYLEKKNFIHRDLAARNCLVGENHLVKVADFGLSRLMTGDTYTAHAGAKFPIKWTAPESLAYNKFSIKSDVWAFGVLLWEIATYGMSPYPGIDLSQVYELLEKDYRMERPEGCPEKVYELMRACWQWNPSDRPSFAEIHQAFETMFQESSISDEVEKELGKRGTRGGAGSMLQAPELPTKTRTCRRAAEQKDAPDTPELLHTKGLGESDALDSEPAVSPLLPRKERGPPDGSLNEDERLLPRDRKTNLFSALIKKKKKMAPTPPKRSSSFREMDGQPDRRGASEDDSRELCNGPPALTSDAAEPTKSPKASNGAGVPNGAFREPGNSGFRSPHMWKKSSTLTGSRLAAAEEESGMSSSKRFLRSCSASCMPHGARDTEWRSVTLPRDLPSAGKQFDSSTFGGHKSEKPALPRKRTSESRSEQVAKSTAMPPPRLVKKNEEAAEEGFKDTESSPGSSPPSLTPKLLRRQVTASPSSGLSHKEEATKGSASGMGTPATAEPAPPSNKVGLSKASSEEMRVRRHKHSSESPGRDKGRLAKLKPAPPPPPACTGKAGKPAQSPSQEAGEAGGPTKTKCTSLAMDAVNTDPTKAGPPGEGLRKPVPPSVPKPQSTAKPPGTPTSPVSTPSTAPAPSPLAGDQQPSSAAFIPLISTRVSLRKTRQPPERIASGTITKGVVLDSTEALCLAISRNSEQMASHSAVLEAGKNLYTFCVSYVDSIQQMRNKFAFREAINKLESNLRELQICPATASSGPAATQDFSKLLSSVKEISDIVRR
UniProt P63086, whole entry, looked up: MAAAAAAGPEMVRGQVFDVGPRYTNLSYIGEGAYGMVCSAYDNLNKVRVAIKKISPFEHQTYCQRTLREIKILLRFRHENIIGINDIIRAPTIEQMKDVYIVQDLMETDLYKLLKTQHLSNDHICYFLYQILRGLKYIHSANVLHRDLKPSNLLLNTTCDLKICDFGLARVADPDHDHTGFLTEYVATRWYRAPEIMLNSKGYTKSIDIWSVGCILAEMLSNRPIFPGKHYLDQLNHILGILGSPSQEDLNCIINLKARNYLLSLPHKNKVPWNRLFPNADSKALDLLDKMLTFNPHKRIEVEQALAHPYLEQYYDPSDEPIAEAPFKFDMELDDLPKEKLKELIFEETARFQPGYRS

What was measured:
[1] = target: Tyrosine-protein kinase ABL1 (Mus musculus) (UniProt P00520); assay: Inhibition of mouse recombinant Abl expressed in Escherichia coli assessed as phosphopoly Gt formation using poly Gt as substrate at 10 uM by fluorescence polarization method
[2] = target: Mitogen-activated protein kinase 1 (Rattus norvegicus) (UniProt P63086); assay: Inhibition of rat recombinant ERK42 expressed in Escherichia coli using MBP as substrate and [gamma-33P]ATP at 10 uM by scintillation counting
[3] = target: Dual specificity mitogen-activated protein kinase kinase 1 (Oryctolagus cuniculus) (UniProt P29678); assay: Inhibition of rabbit recombinant MEK1 expressed in Escherichia coli using inactivated MAP kinase as substrate and [gamma-33P]ATP at 10 uM by scintillation counting
Rattus norvegicus = species: Rattus norvegicus; assay: Displacement of [125I]-alpha-bungarotoxin from alpha-BGTX-sensitive neuronal nicotinic receptor in rat cerebral cortex at 10 uM; type: tissue-based

Measured: inhibition

Cc1ccc(C(=O)CBr)cc1
< 10%: all assays above
